Measured values from several laboratories, pooled; numbers as filed in NIAID ChemDB.

All rows: target-level tests; organism: Hepatitis C virus

Two numbers with a dash give a range or band. ICn is the concentration giving n% inhibition. Conditions beyond the fields shown may differ between rows. An empty or dashed field is not shown.

smiles,strain,protein,measure,read by,result
Nc1ccc(-c2nc3cc(C(=O)N[C@H](C(=O)O)c4c[nH]c5ccc(O)cc45)ccc3n2C2CCCCC2)cn1,,NS5B polymerase,IC50,,1–5 µM
Cn1cccc1-c1nc2cc(C(=O)NC3(C(=O)Nc4ccc(/C=C/C(=O)O)cc4)CCCC3)ccc2n1C1CCC1,,NS5B polymerase,IC50,,0.5–5 µM
COC(=O)[C@H](Cc1ccc(Nc2c(O)c(=O)c2=O)cc1)NC(=O)c1ccc2c(c1)nc(-c1ccoc1)n2C1CCCCC1,,NS5B polymerase,IC50,,<1 µM
CCCCN(C1=C(O)C[C@](CCc2cccc(O)c2)(C2CCCC2)OC1=O)c1ccccc1,,Nonstructural protein 5B,IC50,,1–10 µM
Clc1cc(Cl)cc(Oc2ccc(-c3cnc4c(-c5nn[nH]n5)cnn4c3C3CCCCC3)cc2)c1,,RNA-dependent RNA polymerase,IC50,,1–10 µM
CCC[C@@H](NC(=O)c1ccc2c(c1)nc(-c1ccoc1)n2C1CCCCC1)C(=O)Nc1ccc(/C=C/C(=O)O)cc1,,NS5B polymerase,IC50,,0.5–5 µM
O=C(O)c1cnn2c(C3CCCCC3)c(-c3ccc(OCc4ccccc4)cc3)cnc12,,RNA-dependent RNA polymerase,IC50,,1–10 µM
O=C(N[C@H](C(=O)O)c1c[nH]c2ccc(O)cc12)c1ccc2c(c1)nc(-c1ccc(N3CCCC3)cc1)n2C1CCCCC1,,NS5B polymerase,IC50,,1–5 µM
C[C@@H](NC(=O)c1ccc2c(c1)nc(-c1ccc[nH]1)n2C1CCCCC1)C(=O)Nc1ccc(/C=C/C(=O)O)cc1,,NS5B polymerase,IC50,,<0.5 µM
CC(C)(C)OC(=O)NCC(C)(C)c1cccc(CCC2(C3CCCC3)CC(=O)CC(=O)O2)c1,,Nonstructural protein 5B,IC50,,10–50 µM
O=C(O)c1cc2nc(-c3ccc(C(F)(F)F)cc3)cc(-c3cccc(Cl)c3)n2n1,,RNA-dependent RNA polymerase,IC50,,>10 µM
C=CCC(NC(=O)[C@H](CC1CCCCC1)NC(=O)[C@@H](NC(=O)[C@H](CC(C)C)NN1CCCCC1)[C@@H](C)CC)C(=O)C(=O)C(=O)N[C@@H](Cc1ccc(OP(=O)(O)O)cc1)C(=O)O,,NS3/NS4A serine protease,IC50,,0.18 µM
CC(C)CCC1(C2CCCC2)CC(O)=CC(=O)O1,,Nonstructural protein 5B,IC50,,>50 µM
C=Cc1ccc(C(NC(=O)c2cccnc2)C(=O)Nc2cccc(C(=O)NS(=O)(=O)c3ccc(C(F)(F)F)cc3)c2)cc1Oc1cc(OC)nc(-c2ccccc2)n1,GT1a,Nonstructural protein 3/4A,Ki,FRET,0.24 µM
O=c1nc[nH]c(=O)c2c1ncn2[C@H]1O[C@@H](CO)[C@H](O)[C@@H]1O,,Nonstructural protein 3 NTPase/helicase,IC50,helicase activity,>500 µM
CC(NC(=O)c1ccc2c(c1)nc(-c1ccoc1)n2C1CCCCC1)C(=O)Nc1cc(C(=O)O)ccc1O,,NS5B polymerase,IC50,,0.5–5 µM
O=C(N[C@@H](Cc1c[nH]c2ccc(O)cc12)C(=O)O)c1ccc2nc(-c3ccoc3)[nH]c2c1,,NS5B polymerase,IC50,,<1 µM
C=CCC(NC(=O)[C@H](CC1CCCCC1)NC(=O)[C@@H](NC(=O)[C@H](CC(C)C)NC(=O)[C@@H](CC(C(=O)O)C(=O)O)NC(=O)[C@@H](N)CC(=O)O)[C@@H](C)CC)C(=O)C(O)C(=O)N[C@@H](Cc1ccc(OC)cc1)C(=O)O,,NS3/NS4A serine protease,IC50,,165 µM
C[C@@H](NC(=O)c1ccc2c(n1)nc(-c1ccoc1)n2C1CCCCC1)C(=O)Nc1ccc(/C=C/C(=O)O)cc1,,NS5B polymerase,IC50,,<0.5 µM
C=CCC(NC(=O)[C@H](C)NC(=O)[C@@H](NC(=O)[C@@H](NC(C)=O)C(C)C)C(C)C)C(=O)C(=O)C(=O)N[C@@H](C)C(=O)O,,NS3/NS4A serine protease,IC50,,57 µM
O=C(O)/C=C/c1ccc(N2CCOCC2)c(NC(=O)C2(NC(=O)c3ccc4c(c3)nc(-c3ccoc3)n4C3CCCCC3)CCCC2)c1,,NS5B polymerase,IC50,,0.5–5 µM
CCC(NC(=O)[C@H](CC1CCCCC1)NC(=O)[C@@H](NC(C)=O)[C@@H](C)CC)C(=O)C(=O)C(=O)N[C@@H](Cc1ccc(OC)cc1)C(=O)O,,NS3/NS4A serine protease,IC50,,8.4 µM
Cc1ccc(Cl)cc1Oc1ccc(-c2cnc3c(-c4nn[nH]n4)cnn3c2C2CCCCC2)cc1,,RNA-dependent RNA polymerase,IC50,,1–10 µM
O=C(NC1(C(=O)Nc2ccc3[nH]c(=S)sc3c2)CCCC1)c1ccc2c(c1)nc(-c1ccoc1)n2C1CCCCC1,,NS5B polymerase,IC50,,0.5–5 µM
C=Cc1ccc(C(NC(=O)N2CCOCC2)C(=O)Nc2cccc(C(=O)NS(=O)(=O)c3ccc(C(F)(F)F)cc3)c2)cc1Oc1cc(OC)nc(-c2ccccc2)n1,GT1a,Nonstructural protein 3/4A,Ki,FRET,0.59 µM
C=CCC(NC(=O)[C@H](CC1CCCCC1)NC(=O)[C@@H](NC(=O)[C@H](CC(C)C)NC(=O)[C@@H](CC(C(=O)O)C(=O)O)NC(=O)[C@@H](N)CC(=O)O)[C@@H](C)CC)C(=O)C(=O)C(=O)N[C@@H](Cc1ccc(OC)cc1)C(=O)O,,NS3/NS4A serine protease,IC50,,0.00045 µM
C=Cc1ccc(C(NC(=O)OC(C)(C)C)C(=O)Nc2ccccc2C(=O)NS(=O)(=O)c2ccc(C(F)(F)F)cc2)cc1Oc1cc(OC)nc(-c2ccccc2)n1,GT1a,Nonstructural protein 3/4A,Ki,FRET,0.24 µM
COc1cc(OC)c(CCC2(C3CCCC3)CC(O)=C(Sc3nc(N)c4cn[nH]c4n3)C(=O)O2)cc1Cl,,Nonstructural protein 5B,IC50,,<1 µM
C=CCCCS(=O)(=O)NC(=O)c1cccc(NC(=O)C(NC(=O)OC(C)(C)C)c2ccc(C=C)c(Oc3cc(OC)nc(-c4ccccc4)n3)c2)c1,GT1a,Nonstructural protein 3/4A,Ki,FRET,0.21 µM
COC(=O)c1ccc(-c2ccc(Cl)cc2)c(COc2ccc(-c3cnc4c(-c5nn[nH]n5)cnn4c3C3CCCCC3)cc2)c1,,RNA-dependent RNA polymerase,IC50,,<1 µM
O=C(O)/C=C/c1ccc(NC(=O)C2(NC(=O)c3ccc4c(c3)nc(-c3ccc[nH]3)n4C3CCCC3)CCCC2)cc1,,NS5B polymerase,IC50,,0.5–5 µM
C=CCCCS(=O)(=O)NC(=O)c1cccc(NC(=O)C(NC(=O)OC2CCCC2)c2ccc(C=C)c(Oc3cc(OC)nc(-c4ccccc4)n3)c2)c1,GT1a,Nonstructural protein 3/4A,Ki,FRET,0.13 µM